The Kd is a measure of binding affinity in units of concentration. A low value points to higher affinity.

Values joined by “and” are separate entries in the source; they are usually repeats but may differ in a detail not shown here. Equal entries are not always repeated.

This test has as its target angiotensin-converting enzyme 2 (ACE2) (UniProt Q9BYF1). Briefly: SPR. On the technique in general: Surface plasmon resonance follows binding to a sensor surface in real time, without labels.

For “SARS-CoV-2 spike (S) glycoprotein, secreted trimer produced in insect cells (natural protein)”, the Kd was 0.7 nM and 1.4 nM.
